Results deposited as PubChem BioAssay AID504761 (Drosophila RNAi Screening Center, 2011)
The deposit covers about 22,000 reagents; shown is a random part of those that have a named target and a result. Of all reagents, 116 (0.52%) were called active. 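Calls depend on retest data that are not deposited; infection was ranked per plate without normalising between plates; the unit of the infection score is not given.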 Raw values are not corrected between plates. Names joined by + are all predicted targets of the reagent. Reagent sequences are not shown. Not given: the amount of reagent, the time to read-out.

- Test: 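Insect host genes that dengue virus relies on to spread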 (primary screen)
- System: D.Mel-2 cells from Drosophila
- Knock-down reagent: long dsRNA against Drosophila genes
- Challenge: infection with dengue virus type 2; dose and infection time not stated
- Measured: 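Cells stained for dengue envelope protein and imaged; percent of infected cells per well on duplicate plates, ranked by infection, with stained nuclei counted for cell number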
- Direction: infection score: higher = more virus-infected cells; cell count: higher = more cells in the well
- Hit rule: 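Low infection ranks in the two replicates (chance level up to 0.065) followed by a retest with a 1.5-fold or larger significant decrease, p below 0.05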
- Calls: active = confirmed: knock-down lowers infection; inactive = not picked or not confirmed

no.	Target gene	DRSC id	infection score, replicate 1	infection score, replicate 2	cell count, replicate 1	cell count, replicate 2	Call
1	CG8508	DRSC16436	10.7	12.2	5295	5205	inactive
2	CG12590	DRSC12216	9.73	6.32	6022	6818	inactive
3	CG8097	DRSC20079	6.42	12.5	5827	6180	inactive
4	tx (retired record)	DRSC16931	18.4	1.3	6372	6480	inactive
5	tx (retired record)	DRSC27383	28.6	14.9	5625	6124	inactive
6	MTPAP	DRSC18585	4.11	4.75	6792	6027	inactive
7	MTPAP	DRSC30055	2.37	2.94	6114	5922	inactive
8	Df31	DRSC03738	2.11	6.37	6016	6545	inactive
9	Df31	DRSC22163	9.15	10.9	5736	5697	inactive
10	Nthl1	DRSC03183	5.42	2.88	5906	6658	inactive
11	CG4269	DRSC04457	15.6	22.8	4111	4991	inactive
12	CG34404	DRSC15335	3.65	4.04	6404	1163	inactive
13	CG34404	DRSC15978	22.3	25.3	5515	5589	inactive
14	CG34404	DRSC25463	6.95	15.1	6243	6007	inactive
15	ifc	DRSC03549	0.63	2.19	6052	5802	inactive
16	CG3600 (retired record)	DRSC18599	5.47	2.27	5425	5728	inactive
17	CG3600 (retired record)	DRSC25130	2.63	8.14	6643	6300	inactive
18	CG6013	DRSC15947	1.8	2.2	6286	6578	inactive
19	CG6013	DRSC29573		10	423	5379	inactive
20	eEF5	DRSC04681	18.4	2.24	5490	894	inactive
21	Letm1	DRSC04476	20.9	15.8	4323	4514	inactive
22	Cph	DRSC25005	15.8	7.76	6954	6408	inactive
23	pr	DRSC03596	5.21	17.4	6357	5497	inactive
24	CG32809	DRSC18507	7.67	13.4	6313	6070	inactive
25	CG32809	DRSC18562	4.52	7.33	5904	3058	inactive
26	CG32809	DRSC18592		1.71	47	6359	inactive
27	Pld	DRSC04854	34.9	12.6	5268	6368	inactive
28	Pld	DRSC24641	3.76	3.37	6109	6386	inactive
29	CG30340	DRSC05167	1.68	1.77	5839	6052	inactive
30	snRNA:U11	DRSC36526	0.98	6.78	5921	6567	inactive
31	Or94b	DRSC16773	1.25	4.98	6263	6843	inactive
32	Or94b	DRSC27188	8.82	9.61	6893	6786	inactive
33	Cpr47Ec	DRSC07332	18.1	11.1	5836	6076	inactive
34	Ids	DRSC08222	0.49	1.92	6534	6249	inactive
35	mas	DRSC08720	16.4	14.2	6009	5137	inactive
36	mas	DRSC28905	10.1	3.05	3282	1673	inactive
37	Tsp	DRSC02144	1.98	9.43	6016	2610	inactive
38	Tsp	DRSC02145	2.01	5.22	6730	6375	inactive
39	CG13151	DRSC06276	8.26	4.94	6309	6918	inactive
40	Or65b	DRSC08809	3.17	2.13	5968	5723	inactive
41	twi	DRSC23185	0.99	9.18	5659	6599	inactive
42	twi	DRSC26056	5.34	1.67	6984	6629	inactive
43	Pex6 + Hao	DRSC06097	1.58	3.8	6583	6742	inactive
44	Pex6 + Hao	DRSC06704	3.35	10.6	6839	6205	inactive
45	CG10348	DRSC23233	2.53	2.53	6572	6998	inactive
46	CG10348	DRSC30046	29.5	14.3	3371	6672	inactive
47	pHCl-1	DRSC09991	0.78	13.7	5755	5020	inactive
48	pHCl-1	DRSC10589	0.62	2.88	5989	6040	inactive
49	CG42542	DRSC15549	5.24	6.98	6713	6820	inactive
50	CG42542	DRSC22264	2.08	14.4	5728	5998	inactive
51	CG42542	DRSC26522	2.07	4.66	6044	5861	inactive
52	CG42542	DRSC26676	5.86	4.39	6574	6316	inactive
53	CG8531	DRSC07209	5.52	11.9	6018	6121	inactive
54	RpS6	DRSC18712	22.7	15.3	1508	1921	inactive
55	RpS6	DRSC25010	5.18	8.39	2412	3231	inactive
56	CG15014	DRSC08468	3.38	1.26	5829	5548	inactive
57	CG15014	DRSC27374	30.7	27.7	6017	6285	inactive
58	Alg13	DRSC14864	3.66	19.3	6392	5756	inactive
59	Alg13	DRSC28209	11.7	10.3	3770	6385	inactive
